Pooled drug test results. Numbers come from NIAID ChemDB, via PubChem.

Shared fields: enzyme or target tests; agent: HIV-1; protein: Protease; read-out: IC50

Blank or dashed fields: not listed here. Lines come from different laboratories, so protocols vary. ICn: concentration for n% inhibition.

CCCCCCCCCCCC(=O)O[C@@H]1C[C@]2(C)[C@H]3CC=C4[C@@H]5CC(C)(C)CC[C@]5(C(=O)O)CC[C@@]4(C)[C@]3(C)CC[C@H]2C(C)(C)[C@H]1O ; method: FRET ; value: >1200 µg/mL
CC(C)C[C@H](NC(=O)[C@@H](NC(=O)CCCCCCCCCCCCCCC(=O)N[C@@H](CC(N)=O)C(=O)N[C@@H](Cc1cccc2ccccc12)C(=O)O)C(C)O)C(=O)N[C@@H](Cc1cc(I)c(Oc2cc(I)c(O)c(I)c2)c(I)c1)C(N)=O ; method: HPLC ; value: 0.23 µM
COC(=O)c1ccccc1NCC(O)Cn1c(C(=O)NC(C)(C)C)cc2cc(Cl)ccc21 ; value: 25 µM
COC(=O)[C@]12CCC(C)(C)C[C@H]1C1=CC[C@@H]3[C@@]4(C)CC/C(=N\O)C(C)(C)[C@@H]4CC[C@@]3(C)[C@]1(C)CC2 ; method: HPLC ; value: 5.5 µM
CC(C)(C)OC(=O)N[C@H](Cc1ccccc1)/C(O)=C(\C#N)c1c(F)c(F)c(F)c(F)c1F ; method: HPLC ; value: 19 µM
CC(C)(CC(=O)O)CC(=O)O[C@@H]1C[C@]2(C)[C@H]3CC=C4[C@@H]5CC(C)(C)CC[C@]5(C(=O)OCc5ccccc5)CC[C@@]4(C)[C@]3(C)CC[C@H]2C(C)(C)[C@H]1O ; method: FRET ; value: >1200 µg/mL
CCCN1C(=O)N(CCC)N(C(=O)C(C)C)C[C@@H](O)[C@H]1Cc1ccccc1 ; method: fluorescence ; value: 0.011 µM
COC(=O)[C@H](CC(C)C)NC(=O)C[C@@H]1CC[C@H](NC(=O)[C@H](C)NC(=O)OC(C)(C)C)[C@H]1O ; method: absorbance ; value: >10 µM
CC(C)[C@H](NC(=O)[C@H](Cc1cccc2ccccc12)CS(=O)(=O)C(C)(C)C)C(=O)N[C@@H](Cc1ccccc1)[C@@H](O)[C@@H](N=[N+]=[N-])[C@H](Cc1ccccc1)NC(=O)[C@@H](NC(=O)[C@H](Cc1cccc2ccccc12)CS(=O)(=O)C(C)(C)C)C(C)C ; strain or isolate: D34 ; method: HPLC ; value: 0.06 µM
CC(C)C[C@H](NC(=O)CCCCCCCCCCCCCCC(=O)N[C@@H](CC(N)=O)C(=O)N[C@@H](CCc1ccccc1)C(=O)O)C(=O)N[C@@H](CC(C)C)C(=O)N[C@@H](Cc1ccccc1)C(N)=O ; method: HPLC ; value: 0.51 µM
CC1(C)CC[C@]2(C(=O)O)CC[C@]3(C)C(=CC[C@@H]4[C@@]5(C)CC[C@H](OC(=O)CCCCC(=O)O)C(C)(C)[C@@H]5CC[C@]43C)[C@@H]2C1 ; method: HPLC ; value: 3 µM
CC1CCC2C(C)(C)C(O)CCC2(C)C12Cc1c(cc3c(c1O)C(=O)NC3=O)O2 ; method: substrate cleavage / HPLC ; value: 375 µM
CC(O)[C@H](NC(=O)OCc1ccccc1)C(=O)N[C@@H](Cc1ccccc1)[C@H](O)CNC[C@@H](O)[C@H](Cc1ccccc1)NC(=O)OC(C)(C)C ; method: HPLC ; setting: pH 5.5 ; value: <10 µM
CCCCCC(=O)O[C@@H]1C[C@]2(C)[C@H]3CC=C4[C@@H]5CC(C)(C)CC[C@]5(C(=O)OCc5ccccc5)CC[C@@]4(C)[C@]3(C)CC[C@H]2C(C)(C)[C@H]1O ; method: FRET ; value: >1200 µg/mL
CSCC[C@H](NC(=O)CCCCCCCCCCCCCCC(=O)N[C@@H](CC(N)=O)C(=O)N[C@@H](CCc1ccccc1)C(=O)O)C(=O)N[C@@H](CC(C)C)C(=O)N[C@@H](Cc1ccccc1)C(N)=O ; method: HPLC ; value: 0.57 µM
CC(C)[C@H](NC(=O)[C@H](Cc1cccc2ccccc12)CS(=O)(=O)C(C)(C)C)C(=O)N[C@@H](Cc1ccccc1)[C@H](O)[C@H](O)[C@H](Cc1ccccc1)NC(=O)[C@@H](NC(=O)[C@H](Cc1cccc2ccccc12)CS(=O)(=O)C(C)(C)C)C(C)C ; strain or isolate: D34 ; method: HPLC ; value: 0.0005 µM
CCCN1C(=O)N(CCC)N(C(=O)C(C)(C)C)C[C@@H](O)[C@H]1Cc1ccccc1 ; method: fluorescence ; value: 0.0068 µM
CC(C)(C)S(=O)(=O)C[C@@H](Cc1cccc2ccccc12)C(=O)N1CCC[C@H]1C(=O)N[C@@H](Cc1ccccc1)[C@@H](O)[C@H](O)[C@H](Cc1ccccc1)NC(=O)[C@@H]1CCCN1C(=O)[C@H](Cc1cccc2ccccc12)CS(=O)(=O)C(C)(C)C ; strain or isolate: D34 ; method: HPLC ; value: 20 µM
COC(=O)c1ccccc1NCC(O)Cn1c(C(=O)NC(C)(C)C)cc2ccccc21 ; value: 115 µM
CC(=O)O[C@@H]1C[C@]2(C)[C@H]3CC=C4[C@@H]5CC(C)(C)CC[C@]5(C(=O)OCc5ccccc5)CC[C@@]4(C)[C@]3(C)CC[C@H]2C(C)(C)[C@H]1OC(C)=O ; method: FRET ; value: >1200 µg/mL
COC(=O)[C@]12CCC(C)(C)C[C@H]1C1=CC[C@@H]3[C@@]4(C)CC[C@H](OC(=O)CCCCC(=O)O)C(C)(C)[C@@H]4CC[C@@]3(C)[C@]1(C)CC2 ; method: HPLC ; value: 7.5 µM
CC(C)[C@H](NC(=O)[C@H](Cc1cccc2ccccc12)CS(=O)(=O)C(C)(C)C)C(=O)N[C@@H](Cc1ccccc1)[C@H](O)[C@@H](O)[C@H](Cc1ccccc1)NC(=O)[C@@H](NC(=O)[C@H](Cc1cccc2ccccc12)CS(=O)(=O)C(C)(C)C)C(C)C ; strain or isolate: D34 ; method: HPLC ; value: 0.0003 µM
CCOC(=O)c1ccccc1SCC(O)Cn1cc(C(=O)OCC)c(-c2ccccc2)c1 ; value: 200 µM
CC(C)(C)OC(=O)N[C@@H](Cc1ccccc1)[C@H](O)CNC[C@@H](O)[C@H](Cc1ccccc1)NC(=O)OC[C@H](O)CO ; method: HPLC ; setting: pH 5.5 ; value: <10 µM
CC1(C)CC[C@]2(C(=O)O)CC[C@]3(C)C(=CCC4[C@@]5(C)CC[C@H](OC(=O)CCCCCCC(=O)O)C(C)(C)C5CC[C@]43C)C2C1 ; method: HPLC ; value: 3 µM
CC(C)(C)OC(=O)N[C@@H](Cc1ccccc1)[C@H](O)CN[C@H](Cc1ccccc1)C(O)CNC(=O)OCc1ccccc1 ; method: HPLC ; setting: pH 5.5 ; value: >10 µM
CCCC(=O)O[C@@H]1C[C@]2(C)[C@H]3CC=C4[C@@H]5CC(C)(C)CC[C@]5(C(=O)O)CC[C@@]4(C)[C@]3(C)CC[C@H]2C(C)(C)[C@H]1O ; method: FRET ; value: >1200 µg/mL
CCCCCCCCCCS(=O)(=O)CCC(=O)N[C@H](C(=O)N[C@@H](Cc1ccccc1)[C@@H](O)[C@H](O)[C@H](Cc1ccccc1)NC(=O)[C@@H](NC(=O)CCS(=O)(=O)CCCCCCCCCC)C(C)C)C(C)C ; strain or isolate: D34 ; method: HPLC ; value: >10 µM
CC(=O)O[C@H]1[C@H](O)C[C@]2(C)[C@H]3CC=C4[C@@H]5CC(C)(C)CC[C@]5(C(=O)O)CC[C@@]4(C)[C@]3(C)CC[C@H]2C1(C)C ; method: FRET ; value: >1200 µg/mL
CC(C)[C@H](NC(=O)[C@H](Cc1ccccc1)NS(C)(=O)=O)C(=O)N[C@@H](Cc1ccccc1)[C@@H](O)[C@H](O)[C@H](Cc1ccccc1)NC(=O)[C@@H](NC(=O)[C@H](Cc1ccccc1)NS(C)(=O)=O)C(C)C ; strain or isolate: D34 ; method: HPLC ; value: 0.0008 µM
CC(C)C[C@H](NC(=O)[C@@H](NC(=O)CCCCCCCCCCCCCCC(=O)N[C@@H](Cc1ccc(N)cc1)C(=O)N[C@@H](Cc1ccccc1)C(=O)O)C(C)C)C(=O)N[C@@H](Cc1ccccc1)C(N)=O ; method: HPLC ; value: 0.32 µM
CC1(C)CC[C@]2(C(=O)O)CC[C@]3(C)C(=CCC4[C@@]5(C)CC/C(=N\OC(=O)CCCCC(=O)O)C(C)(C)C5CC[C@]43C)C2C1 ; method: HPLC ; value: 5.5 µM
CC(C)C[C@H](NC(=O)C[C@@H]1CC[C@@H](O)[C@@H]1NC(=O)[C@H](Cc1ccccc1)NC(=O)[C@@H](NC(=O)OCc1ccccc1)C(C)C)C(=O)NC(C)(C)C ; method: absorbance ; value: >10 µM
CC1(C)CC[C@]2(C(=O)O)CC[C@]3(C)C(=CC[C@@H]4[C@@]5(C)CC[C@H](OC(=O)CCC(=O)O)C(C)(C)[C@@H]5CC[C@]43C)[C@@H]2C1 ; method: FRET ; value: >1200 µg/mL
CC(C)[C@H](NC(=O)OCc1ccccc1)C(=O)N[C@@H](Cc1ccccc1)C(O)[C@H](Cc1ccccc1)NC(=O)[C@@H](NC(=O)OCc1ccccc1)C(C)C ; value: 0.025 µM
CC(C)[C@H](NC(=O)C(Cc1ccccc1)CS(=O)(=O)CCO)C(=O)N[C@@H](Cc1ccccc1)[C@@H](O)[C@H](O)[C@H](Cc1ccccc1)NC(=O)[C@@H](NC(=O)C(Cc1ccccc1)CS(=O)(=O)CCO)C(C)C ; strain or isolate: D34 ; method: HPLC ; value: 0.0048 µM
CCOC(=O)c1cn(CC(O)CNc2cccc(Cl)c2)cc1-c1ccccc1 ; value: >200 µM
CC(C)(CC(=O)O)CC(=O)O[C@@H]1C[C@]2(C)[C@H]3CC=C4[C@@H]5CC(C)(C)CC[C@]5(C(=O)OCc5ccccc5)CC[C@@]4(C)[C@]3(C)CC[C@H]2C(C)(C)[C@H]1OC(=O)CC(C)(C)CC(=O)O ; method: FRET ; value: >1200 µg/mL
CC1(C)CC[C@]2(C(=O)NCCCCCC(=O)O)CC[C@]3(C)C(=CCC4[C@@]5(C)CC[C@H](O)C(C)(C)C5CC[C@]43C)C2C1 ; method: HPLC ; value: 1.7 µM
CC1CCC2C(C)(C)C(O)CCC2(C)C12Cc1c(cc3c(c1O)CC(C(CCCCN1Cc4c(cc5c(c4O)CC4(O5)C(C)CCC5C(C)(C)C(O)CCC54C)C1=O)C(=O)O)C3=O)O2 ; method: substrate cleavage / HPLC ; value: 11 µM
CCOC(=O)c1cn(CC(O)CNc2cccc(N)c2)cc1-c1ccccc1 ; value: >200 µM
CC[C@H](C)[C@H](NC(=O)OC(C)(C)C)C(=O)N[C@H]1[C@@H](CC(=O)N[C@@H](CC(C)C)C(=O)OC)CC[C@@H]1O ; method: absorbance ; value: >10 µM
CC(O)[C@H](NC(=O)CCCCCCCCCCCCCCC(=O)N[C@@H](CC(N)=O)C(=O)N[C@@H](CCc1ccccc1)C(=O)O)C(=O)N[C@@H](CC1CCCCC1)C(=O)N[C@@H](Cc1ccccc1)C(N)=O ; method: HPLC ; value: 0.77 µM
COC(=O)[C@@H](NC(=O)C[C@@H]1CC[C@H](NC(=O)[C@H](C)NC(=O)OC(C)(C)C)[C@H]1O)C(C)C ; method: absorbance ; value: >10 µM
CC(C)[C@H](NC(=O)OCc1ccccc1)C(=O)N[C@@H](Cc1ccccc1)[C@H](O)CNC[C@H](O)[C@H](Cc1ccccc1)NC(=O)[C@@H](NC(=O)OCc1ccccc1)C(C)C ; method: HPLC ; setting: pH 5.5 ; value: <10 µM
COC(=O)[C@]12CCC(C)(C)CC1C1=CCC3[C@@]4(C)CC/C(=N\OC(=O)CCCCC(=O)O)C(C)(C)C4CC[C@@]3(C)[C@]1(C)CC2 ; method: HPLC ; value: 4 µM
CC[C@H](C)[C@H](NC(=O)OCc1ccccc1)C(=O)N[C@@H](Cc1ccccc1)C(=O)N[C@@H]1[C@H](CC(=O)N[C@H](C(=O)OC)C(C)C)CC[C@H]1O ; method: absorbance ; value: 3 µM

Repeating the final 4 entries:

structure	strain or isolate	method	setting	value
COC(=O)[C@@H](NC(=O)C[C@@H]1CC[C@H](NC(=O)[C@H](C)NC(=O)OC(C)(C)C)[C@H]1O)C(C)C		absorbance		>10 µM
CC(C)[C@H](NC(=O)OCc1ccccc1)C(=O)N[C@@H](Cc1ccccc1)[C@H](O)CNC[C@H](O)[C@H](Cc1ccccc1)NC(=O)[C@@H](NC(=O)OCc1ccccc1)C(C)C		HPLC	pH 5.5	<10 µM
COC(=O)[C@]12CCC(C)(C)CC1C1=CCC3[C@@]4(C)CC/C(=N\OC(=O)CCCCC(=O)O)C(C)(C)C4CC[C@@]3(C)[C@]1(C)CC2		HPLC		4 µM
CC[C@H](C)[C@H](NC(=O)OCc1ccccc1)C(=O)N[C@@H](Cc1ccccc1)C(=O)N[C@@H]1[C@H](CC(=O)N[C@H](C(=O)OC)C(C)C)CC[C@H]1O		absorbance		3 µM